Assay: Lysine decarboxylation reaction (1,5-PD production) in the presence of chelating agent
Parameters: species or system Escherichia coli
Conditions: 0.1 mM iron sulfate, 37° C., 16 hours
Description: In the same manner as in Example 4, microbial cells of E. coli JM109/pCadA234 (double mutant expressing CadA at high level) were cultured, the cultured medium was prepared, and after completing the cultivation, incubated at 60° C. for one hour. The activity after incubation was measured, and the cultured medium was diluted so that the enzyme activity became 380 units/mL. 30 mL of this cultured medium containing the enzyme was added to 270 mL of a reaction solution containing 250 g/L of lysine hydrochloride (Ajinomoto Co., Ltd.), 26.5 mg/L of pyridoxal phosphate, 27.8 mg/L (0.1 mM) of iron sulfate heptahydrate and 111.6 mg/L (0.3 mM) of disodium dihydrogen ethylenediaminetetraacetate (EDTA), and the mixture was reacted at 37° C. for 16 hours. No EDTA was added in a control reaction. The pH value was 5.3 when the reaction was started, and elevated with progress of the reaction, but was kept at 7.0 by adding 30% (v/v) sulfuric acid when the pH value reached 7.0.
On the other hand, when EDTA was added, the inhibition of the reaction is restored and lysine was completely consumed. When EDTA was added, 135 g/L of 1,5-PD was formed and lysine was converted at a yield of 98%. […]

B1: pCadA234: lysine decarboxylase (CadA) V3I/A590T double mutant (protein, UniProt P0A9H3 1-715, looked up, variant V3I A590T)
Inducible lysine decarboxylase: MNIIAILNHMGVYFKEEPIRELHRALERLNFQIVYPNDRDDLLKLIENNARLCGVIFDWDKYNLELCEEISKMNENLPLYAFANTYSTLDVSLNDLRLQISFFEYALGAAEDIANKIKQTTDEYINTILPPLTKALFKYVREGKYTFCTPGHMGGTAFQKSPVGSLFYDFFGPNTMKSDISISVSELGSLLDHSGPHKEAEQYIARVFNADRSYMVTNGTSTANKIVGMYSAPAGSTILIDRNCHKSLTHLMMMSDVTPIYFRPTRNAYGILGGIPQSEFQHATIAKRVKETPNATWPVHAVITNSTYDGLLYNTDFIKKTLDVKSIHFDSAWVPYTNFSPIYEGKCGMSGGRVEGKVIYETQSTHKLLAAFSQASMIHVKGDVNEETFNEAYMMHTTTSPHYGIVASTETAAAMMKGNAGKRLINGSIERAIKFRKEIKRLRTESDGWFFDVWQPDHIDTTECWPLRSDSTWHGFKNIDNEHMYLDPIKVTLLTPGMEKDGTMSDFGIPASIVAKYLDEHGIVVEKTGPYNLLFLFSIGIDKTKALSLLRALTDFKRAFDLNLRVKNMLPSLYREDPEFYENMRIQELTQNIHKLIVHHNLPDLMYRAFEVLPTMVMTPYAAFQKELHGMTEEVYLDEMVGRINANMILPYPPGVPLVMPGEMITEESRPVLEFLQMLCEIGAHYPGFETDIHGAYRQADGRYTVKVLKEESKK
1,5-PD formed (0.3 mM EDTA added, 250 g/L lysine hydrochloride): 135 g/L | concentration of 1,5-PD in the reaction solution (EDTA not added): 41.8 g/L
